# Test results as given in patent US20090318341A1.
# How the values were obtained:
# [1] = target: human Kv1.1 channel (human) (UniProt Q09470); experiment: cell-based or functional assay
# [2] = target: human Kv1.3 channel (human) (UniProt P22001); experiment: cell-based or functional assay
Substance,"hKv1.1: IC50 [pM], block of K+ current, whole cell patch clamp [1]",fold loss of potency against synthetic OSK1 [2]
"Fc-L10-OSK1[K7S, E16K, K20D] (Fc fusion)",10000 pM,–
Fc-L10-OSK1[K7S] (Fc fusion),100000 pM,10 fold
